Reference: US20030099931A1

Molecular target: Trinidad donkey (TrD) VEE virus (Venezuelan equine encephalitis virus, Trinidad donkey) (UniProt P05674)
Test: cell-based or functional assay

Substance: irrelevant isotype-matched MAbs (IgG2a-2b)
- Endpoint Neutralization Concentration (PRNT), no C': > 10 µg/mL
- Endpoint Neutralization Concentration (PRNT), with guinea pig complement (C'): > 10 µg/mL
